The assay has as its system surgically induced endometriosis in intact cycling rats. Particulars: rat, 50 mg/kg, 4 weeks, in comparison to the vehicle control (FIG. 4).

On to `C[C@@H]1CN(Cc2ccc(F)cc2)CCN1C(=O)COc1ccc(Cl)cc1NC(N)=O` [(2R)-1-((4-chloro-2-(ureido)phenoxy)methyl)carbonyl-2-methyl-4-(4-fluorobenzyl)piperazine], for which the “area and volume of peritoneal endometriotic lesions” value was “reduce effects on area and volume of peritoneal endometriotic cysts in rat”.

For the origin of these results see patent US20080119471A1, “Piperazine urea derivatives for the treatment of endometriosis” (priority 2004, published 2008).
